A mixed list of measured activities; the numbers were collected in NIAID ChemDB.

Shared fields: whole-cell or culture tests; agent: Vaccinia virus; cell line: E6SM; read-out: EC50

ECn is the concentration giving n% inhibition of infection, replication or growth. Rows are shuffled and stem from different studies.

SMILES | value
CCC(Sc1ncnc2c1cnn2COCC(O)CO)C(N)=O | >400 µg/mL
C=C(N=CC)c1nc(-c2cccc(C)c2)n([C@@H]2O[C@H](CO)[C@@H](O)[C@H]2O)n1 | 150 µg/mL
COC(=O)[C@]1(C)CCC[C@]2(C)c3cc(Br)c4nc(C(F)(F)F)[nH]c4c3CCC12 | >4 µg/mL
O=c1ccn(C2CC(O[N+](=O)[O-])C(CO)O2)c(=O)[nH]1 | >400 µg/mL
Nc1nc(N)c2ncn(C[C@@H](CO)OCP(=O)(O)O)c2n1 | 23.6 µM
CC1(CO)CCC(Cn2nnc3c(N)ncnc32)C1(C)C | 70 µg/mL
CC(C)CS[C@@H]1C[C@H](n2cnc3c(N)ncnc32)[C@@H](O)[C@H]1O | >80 µg/mL
OC[C@H]1O[C@@H](c2cc(/C=C/I)c(F)cc2F)C[C@@H]1O | >400 µg/mL
OC[C@H]1O[C@@H](c2cncc(Br)c2)[C@@H](O)[C@H]1O | ≥100 µg/mL
NC(=O)CSc1ncnc2c1cnn2COCCO | >400 µg/mL
OC[C@H]1O[C@@H](c2ccccc2)C[C@@H]1O | >400 µg/mL
COC(=O)[C@]1(C)CCC[C@]2(C)c3cc(Br)c4[nH]ccc4c3CCC12 | >4 µg/mL
Nc1nc(F)nc2c1ncn2[C@@H]1C=C(CO)[C@@H](O)[C@H]1O | 0.1 µg/mL
C[C@H](Cn1cnc2c(=O)[nH]c(N)nc21)OCP(=O)(O)O | 495 µM
Nc1cc(OC[C@H](CO)OCP(=O)(O)O)nc(N)n1 | 6.5 µM
Nc1ncc2ncn(C[C@H](CF)OCP(=O)(O)O)c2n1 | >600 µM
NC(=O)c1cncc([C@@H]2O[C@H](CO)[C@@H](O)[C@@H]2O)c1 | ≥100 µg/mL
C=Cc1cc([C@H]2C[C@H](O)[C@@H](CO)O2)c(F)cc1F | >400 µg/mL
CO[C@@H]1[C@H](O)[C@@H](CO)O[C@H]1c1ccccc1 | >400 µg/mL
CC=NC(=N)c1nc(-c2cccc(C)c2)n(C/C=C/c2ccccc2)n1 | >4 µg/mL
Nc1nc(N)c2nnn(CCOCP(=O)(O)O)c2n1 | 400 µg/mL
CC1(CO)CCC(Cn2ccc(=O)[nH]c2=O)C1(C)C | 400 µg/mL
CC=NC(=N)c1nc(-c2ccc(C)cc2)n(Cc2ccccc2)n1 | >4 µg/mL
Nc1nc(N)c2ncn(C[C@@H](CF)OCP(=O)(O)O)c2n1 | >600 µM
C=C(N=CC)c1nc(-c2ccc(C)cc2)n(C2O[C@H](CO)[C@@H](O)[C@H](O)[C@H]2O)n1 | >200 µg/mL
Nc1ncnc2c1ncn2C[C@@H](CO)OCP(=O)(O)O | 0.33 µM
O=c1[nH]c(=O)n([C@H]2C[C@H](O)[C@@H](CO)O2)cc1-c1cc(Br)no1 | >400 µg/mL
CC=NC(=N)c1nc(-c2ccc(C)cc2)n(C/C=C/c2ccccc2)n1 | >4 µg/mL
OC[C@H]1O[C@H](c2cncc(Br)c2)[C@@H](O)[C@H]1O | ≥100 µg/mL
C=C(N=CC)c1nc(-c2ccc(C)cc2)n([C@@H]2O[C@H](CO)[C@@H](O)[C@H]2O)n1 | >40 µg/mL
OC[C@H]1O[C@@H](c2cc(C(O)C(I)I)c(F)cc2F)C[C@@H]1O | >80 µg/mL
Nc1nc(N)c(Br)c(OCCOCP(=O)(O)O)n1 | 700 µM
CCc1cc([C@H]2C[C@H](O)[C@@H](CO)O2)c(F)cc1F | >400 µg/mL
CC1(CO)CCC(Cn2nnc3c(=O)[nH]cnc32)C1(C)C | >200 µg/mL
C=C(N=CC)c1nc(-c2cccc(C)c2)n(C2O[C@H](CO)[C@@H](O)[C@H](O)[C@H]2O)n1 | 300 µg/mL
Cc1cn(C2CC(O[N+](=O)[O-])C(CO)O2)c(=O)[nH]c1=O | >400 µg/mL
COC(=O)Nc1nc2c3c(ccc2[nH]1)[C@@]1(C)CCC[C@@](C)(C(=O)OC)C1CC3 | >4 µg/mL
Nc1nc2c(ncn2C[C@@H](CO)OCP(=O)(O)O)c(=O)[nH]1 | 0.41 µM
COC(=O)[C@]1(C)CCC[C@]2(C)c3cc4cc[nH]c4cc3CCC12 | >4 µg/mL
CC(Sc1ncnc2c1cnn2CCCCO)C(N)=O | >400 µg/mL
OC[C@H]1O[C@@H](c2cc(C(O)CI)c(F)cc2F)C[C@@H]1O | >16 µg/mL
NC(=O)c1cncc([C@H]2O[C@H](CO)[C@@H](O)[C@@H]2O)c1 | ≥100 µg/mL
CC(=O)OC[C@H]1O[C@@H](c2ccccc2)C[C@@H]1OC(C)=O | >400 µg/mL
CC=NC(=N)c1nc(-c2cccc(OC)c2)n(COCCO)n1 | 150 µg/mL

The first 4 rows once more:

SMILES,value
CCC(Sc1ncnc2c1cnn2COCC(O)CO)C(N)=O,>400 µg/mL
C=C(N=CC)c1nc(-c2cccc(C)c2)n([C@@H]2O[C@H](CO)[C@@H](O)[C@H]2O)n1,150 µg/mL
COC(=O)[C@]1(C)CCC[C@]2(C)c3cc(Br)c4nc(C(F)(F)F)[nH]c4c3CCC12,>4 µg/mL
O=c1ccn(C2CC(O[N+](=O)[O-])C(CO)O2)c(=O)[nH]1,>400 µg/mL